Reference: patent US20200010853, “METHOD FOR INSERTING DESIRED DNA FRAGMENT INTO SITE LOCATED ADJACENT TO BINDING DOMAIN OF DNA-BINDING PROTEIN” (KYUSHU UNIVERSITY, NATIONAL UNIVERSITY CORPORATION, published 2020)
The exact form of at least one protein or probe is not confirmed. Protein sequences can lack the tags named with them.

Biological target: T1, Tn5 transposase (UniProt Q46731)
T1 sequence (looked up, limits assumed): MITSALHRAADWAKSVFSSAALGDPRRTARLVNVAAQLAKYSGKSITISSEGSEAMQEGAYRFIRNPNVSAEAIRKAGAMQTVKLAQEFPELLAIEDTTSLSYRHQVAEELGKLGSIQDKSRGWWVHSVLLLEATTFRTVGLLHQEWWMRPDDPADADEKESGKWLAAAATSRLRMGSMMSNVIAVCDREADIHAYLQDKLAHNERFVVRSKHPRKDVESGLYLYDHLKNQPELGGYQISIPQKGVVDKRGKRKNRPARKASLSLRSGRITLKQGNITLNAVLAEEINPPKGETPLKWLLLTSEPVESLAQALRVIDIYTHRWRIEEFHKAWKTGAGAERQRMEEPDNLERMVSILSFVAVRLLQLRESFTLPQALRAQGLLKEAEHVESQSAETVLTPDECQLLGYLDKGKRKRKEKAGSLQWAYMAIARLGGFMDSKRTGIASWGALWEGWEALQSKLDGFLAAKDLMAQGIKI
Experiment: binding assay
Settings: Tn5 85 ug/mL bound at room temperature, activated in 10 mM TAPS pH 8.5, 5 mM MgCl2, 10% DMF, 37 C; purified recombinant protein; label: conjugated to secondary antibody

Q: Does “ATGCATTAATACGACTCACTATAGGGTAGATCGCTCGTCGGCAGCGTCAGATGTGTATAAGAGACAG / CTGTCTCTTATACACATCT” bind?
A: binds
